The values below come from ChEMBL document CHEMBL5131381, “Design, synthesis, and mechanistic investigations of phenylalanine derivatives containing a benzothiazole moiety as HIV-1 capsid inhibitors with improved metabolic stability” (Eur J Med Chem, 2022).

Data set [1] in a line: in vitro. The conditions noted are these: human, MT4 cells (mock-infected and HIV-1 3B-infected).
Data set [2] in a line: in vitro. The conditions noted are these: human, MT4 cells (mock-infected and HIV-1 ROD-infected).
The subject of data set [3] is Human immunodeficiency virus 1. The data set is described as follows: Antiviral activity against HIV-1 3B infected in human MT4 cells assessed as protection against virus-induced cytopathic effect by MTT assay. Format: functional, organism-based. To be noted: Human immunodeficiency virus 1, 3B. A general note: Cytopathic effects are the visible damage that an infection or toxin causes in cultured cells.

The subject of the next data set is MT4. The experiment in a line: Cytotoxicity against mock infected human MT4 cells by MTT assay. Format: toxicity, cell-based. In general terms: Tetrazolium assays rely on reduction of a dye to a coloured formazan, in cell work by metabolically active cells.

pEC50: −log10 of the molar value.

`CN(C(=O)[C@H](Cc1ccccc1)NC(=O)c1cccc(C(=O)Nc2ccc(NC(=O)OC(C)(C)C)cc2)c1)c1ccc2scnc2c1`: the selectivity ratio in “in vitro [1]” and in “in vitro [2]” was below 1 in each case.
In the case of `CN(C(=O)[C@H](Cc1ccccc1)NC(=O)c1cccc(C(=O)Nc2cccc(NC(=O)OC(C)(C)C)c2)c1)c1ccc2scnc2c1`, in the data set “in vitro [2]”, the selectivity ratio was above 6.81.
As to `CN(C(=O)[C@H](Cc1ccccc1)NC(=O)c1cccc(C(=O)Nc2ccc(C(F)(F)F)cc2)c1)c1ccc2scnc2c1`, the values for the selectivity ratio in the data set “in vitro [1]” and in the data set “in vitro [2]” were at most 2.23 and below 1, respectively.
For `CN(C(=O)[C@H](Cc1ccccc1)NC(=O)c1cccc(C(=O)Nc2ccccc2NC(=O)OC(C)(C)C)c1)c1ccc2scnc2c1`, in data set [3], the negative-log EC50 (pEC50) was 3.86. Besides, the selectivity ratio was above 1.39 in “in vitro [1]” and above 78.3 in the data set “in vitro [2]”.
Turning to `CN(C(=O)[C@H](Cc1ccccc1)NC(=O)c1cccc(C(=O)Nc2ccc(N)cc2)c1)c1ccc2scnc2c1`, the midpoint of cytotoxicity in the data set on MT4, the CC50, lay at 57.4 µM.
For `C#CCNC(=O)c1cccc(C(=O)N[C@@H](Cc2ccccc2)C(=O)N(C)c2ccc3scnc3c2)c1`, the CC50 in the data set on MT4 came out at 134 µM.

What is called pEC50 is −log10 of the EC50, conventionally taken in molar units. In general, CC50 refers to the concentration that lowers cell viability or growth by half. Low readings indicate greater toxicity to the cells, high ones lower toxicity to the cells.
